Assay results from patent US10202379B2, “Substituted polycyclic carbamoyl pyridone derivative prodrug” (priority 2010, dated 2019).

Experiments:
[1] = target: Cap-dependant Endonuclease (CEN) (RNP fraction, PB1-PB2-PA complex) (Influenza A virus (strain A/Wilson-Smith/1933 H1N1) (Influenza A virus (strain A/WS/1933 H1N1)), UniProt P15659); conditions: read-out: CEN IC50
[2] = system: influenza virus; conditions: read-out: CPE EC50; parent compounds (Reference examples); MDBK or MDCK cells, 3 days, WST-8
[3] = system: influenza virus (A/WS/33, A/Victoria/3/75 or B/Maryland/1/59); assay: Influenza virus-infected mouse lethality inhibitory test; conditions: oral, 14 days after virus infection

Structure (SMILES) | IC50 [1] [nM] | EC50 [2] [nM] | ED50 of single dose (dose for 50% lethality inhibition) [3] [mg/kg/day]
C[C@@H](N1CN([C@@H]2c3ccccc3SCc3c2cccc3C(F)(F)F)n2ccc(=O)c(O)c2C1=O)C(F)(F)F | 29 | 12 | 
C[C@@H](N1CN([C@H]2c3ccccc3CSc3c(CO)cccc32)n2ccc(=O)c(O)c2C1=O)C(F)(F)F |  | 57 | 
C[C@@H](N1CN([C@H]2c3ccccc3CSc3ccccc32)n2ccc(=O)c(O)c2C1=O)C(F)(F)F |  |  | 12.3
